Data as given in patent US9205068B2 (priority 2008, dated 2015).

Test system: exotoxin A (ETA) of Pseudomonas aeruginosa
Assay: Exotoxin A (ETA) cell toxicity
Settings: single drug treatment

SMILES: O=C([O-])CCCc1ccccc1.[Na+] [PBA, sodium 4-phenylbutyrate]
- resistance to exotoxin A (ETA): weak drug-induced resistance
